Experimental data reported in PMC6833013 (Molecules, 2019).
Values after ≈ are worked out from the molar mass of the structure shown. Values joined by “and” are separate entries in the source; they are usually repeats but may differ in a detail not shown here. Equal entries are not always repeated.

Tests used:
[1] = test system: Candida albicans MY1055; assay: Antifungal assay (liquid growth inhibition, MIC); format: cell-based; details: lowest concentration inhibiting ≥95% growth, 20 h at 37 °C, top concentration 64 μg/mL
[2] = test system: Acinetobacter baumannii MB5973; assay: Antibacterial test (liquid growth inhibition, MIC); format: cell-based; details: lowest concentration inhibiting ≥95% growth, 20 h at 37 °C, top concentration 64 μg/mL
[3] = test system: Escherichia coli MB2884; assay: Antibacterial test (liquid growth inhibition, MIC); format: cell-based; details: lowest concentration inhibiting ≥95% growth, 20 h at 37 °C, top concentration 64 μg/mL
[4] = test system: Escherichia coli MB5746; assay: Antibacterial test (liquid growth inhibition, MIC); format: cell-based; details: lowest concentration inhibiting ≥95% growth, 20 h at 37 °C, top concentration 64 μg/mL
[5] = test system: Methicillin-resistant Staphylococcus aureus MRSA MB5393; assay: Antibacterial test (liquid growth inhibition, MIC); format: cell-based; details: lowest concentration inhibiting ≥95% growth, 20 h at 37 °C, top concentration 64 μg/mL
[6] = test system: Pseudomonas aeruginosa MB5919; assay: Antibacterial test (liquid growth inhibition, MIC); format: cell-based; details: lowest concentration inhibiting ≥95% growth, 20 h at 37 °C, top concentration 64 μg/mL
[7] = test system: Staphylococcus aureus EPI167; assay: Antibacterial test (MIC); format: cell-based; details: top concentration 64 μg/mL
[8] = test system: Bacillus subtilis MB964; assay: Agar plate assay (inhibition halos); format: cell-based; details: 10 μL of each of 10 two-fold dilutions starting at 64 μg/mL
[9] = test system: Fa2N4; assay: MTT cytotoxicity assay; format: cell-based; details: non-tumoral immortalized human hepatocytes, 24 h of incubation
[10] = test system: A549; assay: MTT cytotoxicity assay; format: cell-based, human; details: lung carcinoma cells, 24 h of incubation
[11] = test system: HT29; assay: MTT cytotoxicity assay; format: cell-based, human; details: colon carcinoma cells, 24 h of incubation
[12] = test system: HepG2; assay: MTT cytotoxicity assay; format: cell-based, human; details: liver cancer cells, 24 h of incubation
[13] = test system: MCF-7; assay: MTT cytotoxicity assay; format: cell-based, human; details: breast carcinoma cells, 24 h of incubation
[14] = test system: RCC4-VA; assay: MTT cytotoxicity assay; format: cell-based, human; details: renal carcinoma cells, 24 h of incubation
[15] = test system: RCC4-VHL; assay: MTT cytotoxicity assay; format: cell-based, human; details: renal carcinoma cells, 24 h of incubation
[16] = test system: primary cultured neurons; details: cited from earlier work
[17] = test system: HL-60, SMMC-7721, A549, MCF-7 and SW480 cell lines; details: cited from earlier work

Molecule | MIC C. albicans MY1055 [1] | MIC A. baumannii MB5973 [2] | MIC E. coli MB2884 [3] | MIC E. coli MB5746 [4] | MIC MRSA MB5393 [5] | MIC P. aeruginosa MB5919 [6] | MIC S. aureus EPI167 [7] | B. subtilis MB964 inhibition halo [8] | IC50 Fa2N4 [9] | IC50 A549 [10] | IC50 HT29 [11] | IC50 HepG2 [12] | IC50 MCF-7 [13] | IC50 RCC4-VA [14] | IC50 RCC4-VHL [15] | also measured
CC1=C[C@H]2O[C@@H]3C[C@@H](O)[C@](C)([C@@]2(C)CC1)[C@]31CO1 | 8 to 16 µg/mL and 8 to 32 µg/mL | > 64 µg/mL | > 64 µg/mL | > 64 µg/mL | > 64 µg/mL | > 64 µg/mL | > 64 µg/mL | no halo | >20 µg/mL | > 20 µg/mL | > 20 µg/mL | >20 µg/mL | 4.42 µg/mL (≈ 17.7 µM) | >20 µg/mL | >20 µg/mL | IC50 MCF-7 ([13]; listed as Trichodermol (2)): still exhibited good activity
8-deoxytrichothecin | – | – | – | – | – | – | – | – | – | – | – | – | – | – | – | accumulation of glucosylceramide (GlcCer) and reduction of lactosylceramide (LacCer) formation [16]: induced the accumulation of glucosylceramide (GlcCer); cell viabilities [17]: significantly reduced the cell viabilities
Trichodermin | < 4 µg/mL | > 64 µg/mL | > 64 µg/mL | > 64 µg/mL | > 64 µg/mL | > 64 µg/mL | > 64 µg/mL | no halo | 12.09 µg/mL | > 20 µg/mL | > 20 µg/mL | >20 µg/mL | <1.25 µg/mL | 14.19 µg/mL | >20 µg/mL | MIC C. albicans MY1055 ([1]; listed as trichodermin (1)): < 4 µg/mL; IC50 Fa2N4 ([9]; listed as Trichodermin (1)): moderately inhibited; IC50 MCF-7 ([13]; listed as Trichodermin (1)): intense cytotoxic activity; IC50 RCC4-VA ([14]; listed as Trichodermin (1)): moderately inhibited
